Measured values from several laboratories, pooled; numbers as filed in NIAID ChemDB.

Common to all: whole-cell or culture tests; organism: HIV-1

Rows are shuffled and stem from different studies.

structure	method	setting	strain or isolate	cell line	read-out	mutations	value
COC(=O)N[C@H](C(=O)N[C@@H](Cc1ccccc1)[C@@H](O)CN(Cc1ccc(-c2ccccn2)cc1)NC(=O)[C@@H](NC(=O)OC)C(C)(C)C)C(C)(C)C	β-galactosidase		Site-directed PR mutant 06	HeLa	EC50	PR-I50L A71V	0.0118 µM
O=C1N(Cc2ccc(CO)cc2)[C@H](Cc2ccccc2)[C@H](O)[C@@H](O)[C@@H](Cc2ccccc2)N1Cc1ccc(CO)cc1	cytopathic effect / XTT		IIIB	MT-4	EC50	PR-I84V L90M	0.32 µM
Cc1cn([C@H]2C[C@H](N=[N+]=[N-])[C@@H](COP(=O)(O)O)O2)c(=O)[nH]c1=O	syncytia		GB8	JM	EC50		<2.6 µM
c1ccc(CNCc2ccc(CN3CCCNCCNCCCNCC3)cc2)nc1			NL4-3		EC50		0.004 µg/mL
CC(C)CN(C[C@@H](O)[C@H](Cc1ccccc1)NC(=O)O[C@H]1CCOC1)S(=O)(=O)c1ccc(N)cc1	cytopathic effect / MTT		NL4-3	MT-4	EC50		0.03 µM
CCCCC#CCSc1ccccc1OC(C)=O			HXB2	MT-2	EC50		10 µM
C=C(C#N)c1cc(C)c(Oc2ccnc(Nc3ccc(CN4CCN(S(C)(=O)=O)CC4)cc3)n2)c(C)c1	MTT		IIIB	MT-4	EC50	Y181C	0.025 µM
NC(N)=NCCC[C@H](N)C(=O)NC[C@H]1O[C@H](O[C@H]2C(O)[C@@H](O[C@H]3O[C@H](CO)[C@@H](O)[C@H](NC(=O)[C@@H](N)CCCN=C(N)N)[C@H]3O)[C@H](NC(=O)[C@@H](N)CCCN=C(N)N)C[C@@H]2NC(=O)[C@@H](N)CCCN=C(N)N)[C@H](O)[C@@H](O)[C@@H]1O	cytopathic effect / MTT		RF	MT-4	EC50		>113 µM
C#Cc1ccc(Nc2nccc(Oc3c(C)cc(-c4cn(Cc5ccc([N+](=O)[O-])cc5)nn4)cc3C)n2)cc1	MTT		IIIB	MT-4	EC50	E138K	0.33 µM
CCc1c(Sc2ccc3ccccc3c2N)n(COC)c(=O)[nH]c1=O	cytopathic effect / MTT		IIIB	MT-4	EC50		25.99 µM
Cc1cn([C@H]2C[C@H](C#N)[C@@H](CO)O2)c(=O)[nH]c1=O	cytopathic effect		RF	C8166	EC50		>100 µg/mL
CCNc1cccnc1N1CCN(C(=O)c2cc3cc(OC)ccc3[nH]2)CC1	syncytia		D34	PBL	EC50	TIBO-resistant	>100 µM
O=c1[nH]cnc2c1ncn2[C@H]1CC[C@@H](CO)O1	syncytia		IIIB-Nevirapine(1.0)(RT-Y181C)	CEM	EC50	RT-Y181C	20 µM
CN1C(=O)N(Cc2ccccc2)S(=O)(=O)c2cscc21	syncytia			CEM	EC50	RT-Y181C	>324 µM
OCCN1CCN(CC/C=C2\c3ccccc3Sc3ccc(C(F)(F)F)cc32)CC1	RT activity		IIIB	MOLT-3	EC50		<10 µg/mL
CC(C)c1c(Sc2cccc3ccccc23)n(COCc2ccc(F)cc2)c(=O)[nH]c1=O	cytopathic effect / MTT		IIIB	MT-4	EC50		0.067 µM
CC(=O)c1cccc(CN2C(=O)N(Cc3cccc(C(C)=O)c3)[C@H]3CS[C@@H](CCCCCO)[C@H]32)c1			RF	MT-2	EC50		<26 µM
O=C1N(Cc2ccc(CO)cc2)[C@H](Cc2ccccc2)[C@H](O)[C@@H](O)[C@@H](Cc2ccccc2)N1Cc1ccc(CO)cc1	p24		NL4-3	MT-4	EC95	PR-M46I L63P	0.4 µM
CC(C)Nc1cccnc1N1CCN(C(=O)c2cc3cc(NS(C)(=O)=O)ccc3[nH]2)CC1	cytopathic effect		IIIB WT	CEM	EC50		0.014 µM
Cc1cn([C@H]2C[C@H](N=[N+]=[N-])[C@@H](CO)O2)c(=O)[nH]c1=O	MTT		IIIB	MT-4	EC50		0.0075 µM
Cc1ccnc2c1NC(=O)c1cccnc1N2C1CC1	syncytia		IIIB	MT-4	EC50		0.03 µM
Cc1cc(C#N)cc(C)c1Oc1nc(Nc2ccc(C#N)cc2)ncc1SCC(=O)N1CCSCC1	MTT			MT-4	EC50	E138K	0.0472 µM
CC[C@H](C)[C@H](NC(=O)Cc1ccccn1)C(=O)N[C@@H](Cc1ccccc1)[C@@H](O)[C@H](O)[C@H](Cc1ccccc1)NC(=O)[C@@H](NC(=O)Cc1ccccn1)[C@@H](C)CC	plaque count / virus yield		RF	MT-2	EC50		<0.9 µg/mL
Nc1ncnc2c1ncn2CCOCP(=O)(O)O	syncytia		IIIB-BHAP)(0.1)(RT-L100I	CEM	EC50	RT-L100I	8 µM
COc1ccc(OC[C@@H]2CNCC[C@H]2c2ccc(F)cc2)cc1	p24		IIIB	MOLT-3	EC50		>4 µg/mL
C[C@@H]1[C@H](O)[C@@H](C)/C=C/C=C/C=C/C=C/C=C/C=C/C=C/[C@H](O[C@@H]2O[C@H](C)[C@@H](O)[C@H](N)[C@@H]2O)CC2O[C@](O)(CC(O)C(O)CCC(O)CC(O)CC(O)CC(=O)O[C@H]1C)CC(O)C2C(=O)O.O=S(=O)(O)O	syncytia		IIIB	MOLT-4	EC50		16 µg/mL
CCN1C(=O)N(Cc2cccc(Cl)c2)S(=O)(=O)c2cscc21	syncytia			CEM	EC50	RT-Y188H	≥11.2 µM
O=C(O)P(=O)(O)O	ELISA	2 d		H9	EC50		10 µg/mL
CCOCn1c(Sc2cccc3ccccc23)c(C(C)C)c(=O)[nH]c1=O	cytopathic effect / MTT		IIIB	MT-4	EC50		0.057 µM
CC[C@H]1C(=O)Nc2ccc(F)cc2N1C(=O)OC(C)C	cytopathic effect		TSAO-m3T-resistant	CEM	EC50	RT-E138K	0.0057 µM
CC(C)(C)OC(=O)NCCC(=O)Nc1cccc(C(c2c(O)c3c(oc2=O)CCCCCC3)C2CC2)c1	cytopathic effect / MTT		IIIB	H9	EC50		57 µM
Cc1cn([C@@H]2O[C@H](CO[Si](C)(C)C(C)(C)C)C3(OS(=O)(=O)C=C3N)[C@H]2O[Si](C)(C)C(C)(C)C)c(=O)n(C)c1=O	syncytia		IIIB-TSAO-m3T(10)(RT-Y181C)	CEM	EC50	RT-Y181C	≥50 µg/mL
CCOC(=O)c1ccc(COP(=O)(OCc2ccc(C(=O)OCC)cc2)OC[C@H]2O[C@@H](n3cc(C)c(=O)[nH]c3=O)C[C@@H]2N=[N+]=[N-])cc1	syncytia		IIIB	C8166	EC50		0.08 µM
C#Cc1ccc(Nc2nccc(Oc3c(C)cc(-c4cn(Cc5ccc(O)cc5)nn4)cc3C)n2)cc1	MTT		IIIB	MT-4	EC50	E138K	0.091 µM
COC(=O)CCCC[C@@H]1SC[C@H]2[C@@H]1N(Cc1cccc(Br)c1)C(=O)N2Cc1cccc(Br)c1			RF	MT-2	EC50		<44 µM
CCc1cc(NCc2nc3c(Cl)ccc(Cl)c3o2)c(=O)[nH]c1C	syncytia		MN	H9	EC50		0.03 µM
CCOCn1c(Sc2ccc3ccccc3c2[N+](=O)[O-])c(CC)c(=O)[nH]c1=O	cytopathic effect / MTT		IIIB	MT-4	EC50		0.099 µM
O=C(O)CCCC[C@@H]1SC[C@H]2[C@@H]1N(Cc1cccc(Br)c1)C(=O)N2Cc1cccc(Br)c1			RF	MT-2	EC50		<34 µM
OCCN1CCN(CC/C=C2/c3ccccc3Sc3ccc(C(F)(F)F)cc32)CC1	syncytia		IIIB	MOLT-3	EC50		>2 µg/mL
C#Cc1ccc(Nc2nccc(Oc3c(C)cc(-c4cn(CC(=O)Nc5ccc(S(C)(=O)=O)cc5)nn4)cc3C)n2)cc1	MTT		IIIB	MT-4	EC50	F227L and V106A	>6.36 µM
CC(C)CN(C[C@@H](O)[C@H](Cc1ccccc1)NC(=O)[C@H](CC(N)=O)NC(=O)c1ccc2ccccc2n1)C(=O)NC(C)(C)C	p24		NL4-3	MT-4	EC50	PR-L10R M46I L63P V82T	<0.4 µM
CCOCn1c2c(c(=O)[nH]c1=O)Nc1ccccc1S2	cytopathic effect / MTT			MT-4	EC50		6.9 µg/mL
C#Cc1ccc(Nc2nccc(Oc3c(C)cc(-c4cn(CC(=O)Nc5ccc(F)cc5)nn4)cc3C)n2)cc1	MTT		IIIB	MT-4	EC50	K103N	>1.41 µM
O=S(=O)(O)OC1C(OS(=O)(=O)O)C(OS(=O)(=O)O)C(OS(=O)(=O)O)C(OS(=O)(=O)O)C1OS(=O)(=O)O	cytopathic effect / MTT		NL4-3	MT-4	EC50	GP120-R302S	>250 µg/mL
CCN1C(=O)N(Cc2ccccc2)S(=O)(=O)c2cscc21	syncytia		NDK	MT-4	EC50		15.5 µM
CCOCn1c(Sc2ccc3ccccc3c2)c(CC)c(=O)[nH]c1=O	cytopathic effect / MTT		IIIB	MT-4	EC50		3.37 µM
Cc1cn([C@H]2C[C@H](N=[N+]=[N-])[C@@H](COP(=O)(OCc3ccc(C(=O)OC(C)C)cc3)OCc3ccc(C(=O)OC(C)C)cc3)O2)c(=O)[nH]c1=O	syncytia		IIIB	C8166	EC50		0.08 µM
CC1=C(C)C(CO)(CO)C[C@H]1n1cnc2c(N)ncnc21	cytopathic effect			MT-4	EC50		>100 µg/mL
C#Cc1ccc(Nc2nccc(Oc3c(C)cc(-c4cn(CC(=O)OC)nn4)cc3C)n2)cc1	MTT		IIIB	MT-4	EC50	F227L and V106A	>10.35 µM
Cc1cn([C@H]2C[C@H](N=[N+]=[N-])[C@@H](COP(=O)(O)OCc3ccc(C(=O)OC(C)(C)C)cc3)O2)c(=O)[nH]c1=O	syncytia		GB8	JM	EC50		<1.88 µM
Fc1cccc(F)c1[C@H]1SCc2nc3ccccc3n21	cytopathic effect / MTT		MN	MT-4	EC50		0.04 µg/mL
Nc1ccn([C@H]2CC[C@@H](CO)O2)c(=O)n1	syncytia		IIIB-TIBO(0.5)(RT-L100I)	CEM	EC50	RT-L100I	0.03 µM
Cc1cn([C@@H]2O[C@H](CO[Si](C)(C)C(C)(C)C)C3(OS(=O)(=O)C=C3N)[C@H]2O[Si](C)(C)C(C)(C)C)c(=O)n(C)c1=O	cytopathic effect		IIIB WT	CEM	EC50		0.083 µM
CC1=C(C)C(CO)(CO)C[C@H]1n1ccc(N)nc1=O	cytopathic effect			MT-4	EC50		>100 µg/mL
COCCOCn1c(Sc2cccc3ccccc23)c(C(C)C)c(=O)[nH]c1=O	cytopathic effect / MTT		IIIB	MT-4	EC50		0.65 µM
Cc1ccnc2c1NC(=O)c1cccnc1N2C1CC1	MTT		IIIB	MT-4	EC50	L100I	2.22 µM
O=c1[nH]c(=O)n(COCc2ccccc2)c2c1Nc1ccc(Cl)cc1S2	cytopathic effect / MTT			MT-4	EC50		>3 µg/mL
COc1ccc(OC[C@H]2CNCC[C@@H]2c2ccccc2)cc1	p24		IIIB	MOLT-3	EC50		>4 µg/mL
Cc1cn([C@H]2C[C@H](N=[N+]=[N-])[C@@H](COP(=O)(O)OCc3ccc(C(=O)OC(C)C)cc3)O2)c(=O)[nH]c1=O	syncytia		GB8	JM	EC50		<0.0019 µM
Cc1c(Sc2cccc3ccccc23)n(COCc2ccccc2)c(=O)[nH]c1=O	cytopathic effect / MTT		IIIB	MT-4	EC50		0.18 µM
CNCCC=C1c2ccccc2CCc2ccccc21	syncytia		IIIB	MOLT-3	EC50		>5 µg/mL
CNC(C)[C@H]1O[C@H](O[C@@H]2[C@@H](O)[C@H](O[C@@H]3OC[C@@](C)(O)[C@@H](NC)[C@@H]3O)[C@@H](NC(=O)[C@@H](N)CCCN=C(N)N)C[C@H]2NC(=O)[C@@H](N)CCCN=C(N)N)[C@H](NC(=O)[C@@H](N)CCCN=C(N)N)[C@@H](O)[C@@H]1O	cytopathic effect / MTT		NL4-3	MT-4	EC50		15 µM
N[C@@H](Cc1ccccc1)C(=O)N[C@@H](Cc1ccc(O)cc1)C(=O)O	cytopathic effect / neutral red		IIIB	MT-2	EC50		7 µg/mL
CCOCn1c2c(c(=O)[nH]c1=O)Nc1ccc(Cl)cc1S2	cytopathic effect / MTT			MT-4	EC50		1.4 µg/mL
CC(C)CCN(C[C@@H](O)[C@H](Cc1ccccc1)NC(=O)[C@H](CC(N)=O)NC(=O)c1ccc2ccccc2n1)C(=O)NC(C)(C)C	cytopathic effect / MTT		IIIB	CEM	EC50		0.01 µM
C#Cc1ccc(Nc2nccc(Oc3c(C)cc(-c4cn(Cc5ccccc5)nn4)cc3C)n2)cc1	MTT		IIIB	MT-4	EC50	Y181C	1.42 µM
O=C1N(Cc2cccc(Br)c2)[C@@H]2[C@H](CCCCCO)SC[C@@H]2N1Cc1cccc(Br)c1			RF	MT-2	EC50		<7 µM
C#Cc1ccc(Nc2nccc(Oc3c(C)cc(-c4cn(Cc5cccc([N+](=O)[O-])c5)nn4)cc3C)n2)cc1	MTT		IIIB	MT-4	EC50	E138K	0.51 µM
CN1CC[C@@H](c2ccccc2)[C@H](COc2ccc3c(c2)OCCO3)C1	syncytia		IIIB	MOLT-3	EC50		>0.8 µg/mL

Again, the opening 6 rows:

structure	method	setting	strain or isolate	cell line	read-out	mutations	value
COC(=O)N[C@H](C(=O)N[C@@H](Cc1ccccc1)[C@@H](O)CN(Cc1ccc(-c2ccccn2)cc1)NC(=O)[C@@H](NC(=O)OC)C(C)(C)C)C(C)(C)C	β-galactosidase		Site-directed PR mutant 06	HeLa	EC50	PR-I50L A71V	0.0118 µM
O=C1N(Cc2ccc(CO)cc2)[C@H](Cc2ccccc2)[C@H](O)[C@@H](O)[C@@H](Cc2ccccc2)N1Cc1ccc(CO)cc1	cytopathic effect / XTT		IIIB	MT-4	EC50	PR-I84V L90M	0.32 µM
Cc1cn([C@H]2C[C@H](N=[N+]=[N-])[C@@H](COP(=O)(O)O)O2)c(=O)[nH]c1=O	syncytia		GB8	JM	EC50		<2.6 µM
c1ccc(CNCc2ccc(CN3CCCNCCNCCCNCC3)cc2)nc1			NL4-3		EC50		0.004 µg/mL
CC(C)CN(C[C@@H](O)[C@H](Cc1ccccc1)NC(=O)O[C@H]1CCOC1)S(=O)(=O)c1ccc(N)cc1	cytopathic effect / MTT		NL4-3	MT-4	EC50		0.03 µM
CCCCC#CCSc1ccccc1OC(C)=O			HXB2	MT-2	EC50		10 µM

Blank or dashed fields: not listed here. ECn: concentration that inhibits the pathogen or its effect by n%.